Pooled drug test results. Numbers come from NIAID ChemDB, via PubChem.

All rows: tests in culture; organism: Candida albicans; method: broth dilution; measure: EC50

Blank or dashed fields: not listed here. Conditions beyond the fields shown may differ between rows. ECn: concentration that inhibits the pathogen or its effect by n%.

structure | strain or isolate | value
NC(=O)c1cc[n+](CCCC[n+]2ccccc2/C=N/O)cc1.[Br-].[Br-] |  | >20 µg/mL
CC(C)CC(C(=O)O)N1C(=O)C(C)SC1c1ccccc1 |  | 78.16 µM
NC(=O)c1cc[n+](CCC[n+]2cccc(/C=N/O)c2)cc1.[Br-].[Br-] |  | >20 µg/mL
CC(C(=O)O)N1C(=O)CSC1c1ccccn1 |  | 27.14 µM
COc1cc(NC(C)CCCNC(=O)CC(NC(=O)[C@H](N)CCCN)C(=O)O)c2ncccc2c1 |  | >20 µg/mL
C[C@H]1[C@H](O)[C@@H](C)/C=C/C=C/C=C/C=C/C=C/C=C/C=C/[C@H](O[C@@H]2O[C@H](C)[C@@H](O)[C@H](N)[C@@H]2O)C[C@@H]2O[C@](O)(C[C@@H](O)C[C@@H](O)CC[C@H](O)[C@@H](O)C[C@@H](O)CC(=O)O[C@H]1C)C[C@H](O)[C@H]2C(=O)O | 33 | 2 µM
CC(C)CC(O)C(=O)O | D 17 | 18000 µg/mL
CCCCCOc1ccc(-c2cc(-c3ccc(C(=O)N[C@H]4C[C@@H](O)[C@@H](O)NC(=O)[C@@H]5[C@@H](O)[C@@H](C)CN5C(=O)[C@H]([C@H](O)CC(N)=O)NC(=O)[C@H]([C@H](O)[C@@H](O)c5ccc(O)c(OS(=O)(=O)O)c5)NC(=O)[C@@H]5C[C@@H](O)CN5C(=O)[C@H]([C@@H](C)O)NC4=O)cc3)no2)cc1 | CAF2 | 0.016 µg/mL
O/N=C/c1cccc[n+]1Cc1ccc(Br)s1.[Cl-] |  | >20 µg/mL
CC(=O)Nc1ccc(C(=O)N/N=C/c2ccc(N(C)C)cc2)cc1 | ATCC 10231 | 770 µM
COc1ccccc1C1SCC(=O)N1C(CC(C)C)C(=O)O |  | 80.38 µM
COc1cc(NC(C)CCCNC(=O)CCC(NC(=O)[C@@H](N)CCCN)C(=O)O)c2nc(C(C)(C)C)ccc2c1 |  | >20 µg/mL
COc1ccccc1C1SCC(=O)N1C(Cc1ccccc1)C(=O)O |  | 79.55 µM
COc1cc(NC(C)CCCNC(=O)[C@H](CCCN=C(N)N)NC(=O)[C@@H](N)CCCN=C(N)N)c2ncccc2c1 |  | >20 µg/mL
CC(C)CC(C(=O)O)N1C(=O)CSC1c1ccccc1 |  | 81.3 µM
COc1cc(NC(C)CCCNC(=O)[C@@H](CCCN=C(N)N)NC(=O)[C@H](N)CCCN=C(N)N)c2ncccc2c1 |  | >20 µg/mL
CCCCCCCCCC(=O)[C@@H](C)C(=O)N[C@@H](CC(C)C)C(=O)N[C@H](C)C(=O)N1CCC[C@H]1C(=O)N[C@H](C(=O)N[C@H]1CSCCNC1=O)[C@@H](C)CC | Day185 | 9.1 µM
COc1cc(NC(C)CCCNC(=O)[C@H](CCCN)NC(=O)[C@@H](N)CCCN)c2nc(C(C)(C)C)ccc2c1 |  | >20 µg/mL
CCCCCCCCCC(=O)C(C)C(=O)N[C@@H](CC(C)C)C(=O)N[C@H](C)C(=O)N1CCC[C@H]1C(=O)N[C@H](C(=O)N[C@@H](CC)C(=O)NCCO)C(C)C | Day185 | 5.3 µM
O=C(O)C(Cc1ccccc1)N1C(=O)CSC1c1ccccn1 |  | 80.64 µM
COc1cc(NC(C)CCCNC(=O)[C@@H](CCCCN)NC(=O)[C@H](N)CCCCN)c2ncccc2c1 |  | >20 µg/mL
O/N=C/c1ccc[n+](Cc2ccc(C[n+]3cccc(/C=N/O)c3)s2)c1.[Cl-].[Cl-] |  | >20 µg/mL
COc1cc(NC(C)CCCNC(=O)[C@H](CCCCN)NC(=O)[C@@H](N)CCCCN)c2nc(C(C)(C)C)ccc2c1 |  | >20 µg/mL
O=C(O)C(Cc1ccccc1)N1C(=O)CCSC1c1ccccc1 |  | 55.36 µM